Pooled drug test results. Numbers come from NIAID ChemDB, via PubChem.

All rows: tests in culture; agent: HIV-1; method: β-galactosidase; measure: EC50

ECn is the concentration giving n% inhibition of infection, replication or growth. Lines come from different laboratories, so protocols vary. Blank or dashed fields: not listed here.

compound | changes | strain or isolate | conditions | cells | result
O=C(O)CCc1ccc(CCCC2(O)CCN(C[C@H]3CN(CC4CCCCC4)C[C@@H]3c3ccccc3)CC2)cc1 |  | BaL |  | HeLa | <0.04 µM
O=C(O)/C=C/c1cc(C(=O)O)c(O)c2nc(/C=C/c3ccc(O)c(O)c3)ccc12 |  |  |  | HeLaP4 | 35 µM
Cc1ccc(-c2ccc3c(c2)C=C(C(=O)Nc2ccc(C[N+](C)(C)C4CCOCC4)cc2)CCC3)cc1 |  | BaL |  | MAGI + MAGI-CCR5 | 0.0012 µM
Cn1ncc(CCc2ccccc2)c1C1CCN(C[C@H]2CN([C@@H](C(=O)O)C3CCCCC3)C[C@@H]2c2ccccc2)CC1 |  | BaL |  | HeLa | <0.0037 µM
Cc1cn([C@H]2C[C@H](N=[N+]=[N-])[C@@H](CO)O2)c(=O)[nH]c1=O |  | A031-2 |  | MAGI + MAGI-CCR5 | 0.0162 µM
Cc1cn([C@H]2C[C@H](N=[N+]=[N-])[C@@H](CO)O2)c(=O)[nH]c1=O |  | IIIB |  | HeLa + HeLa-MAGI | 0.016 µM
c1cc(CN2CCCNCCNCCCNCC2)ccc1CN1CCCNCCNCCCNCC1 |  | BaL |  | MAGI | >10 µM
OC1(CCCc2ccccc2)CCN(C[C@H]2CN(CC3CCCCC3)C[C@@H]2c2ccccc2)CC1 |  | BaL |  | HeLa | <0.2 µM
O=C(O)[C@@H](C1CCCCC1)N1C[C@H](CN2CCC(c3cc(Cc4ccccc4)nn3CC(F)(F)F)CC2)[C@@H](c2ccccc2)C1 |  | BaL |  | HeLa | <0.033 µM
C[C@]1(CO)O[C@@H](n2ccc(N)nc2=O)C[C@@H]1O | RT-L74V |  |  | HeLa | 0.0052 µM
CN(C)c1ccc(Nc2c3ccc(NC(=O)CCN4CCCC4)cc3nc3cc(NC(=O)CCN4CCCC4)ccc23)cc1 |  |  |  | HeLaP4 | 8 µM
CC[C@H](C)[C@H](C(=O)O)N1C[C@H](CN2CCC(c3cc(Cc4cccc(CN)c4)nn3CC)CC2)[C@@H](c2cccc(F)c2)C1 |  | BaL | 50% human serum | HeLa | <0.011 µM
CCn1nc(Cc2ccccc2)cc1C1CCN(C[C@H]2CN([C@@H](C(=O)O)C3CCCCC3)C[C@@H]2c2cccc(F)c2)CC1 |  | BaL |  | HeLa | <0.0004 µM
Cc1ccnc2c1NC(=O)c1cccnc1N2C1CC1 |  | HXB2 |  | HeLa + HeLa-MAGI | 0.088 µM
Cc1cn([C@H]2C[C@H](N=[N+]=[N-])[C@@H](CO)O2)c(=O)[nH]c1=O |  | HE-NEV | 3 d | MAGI + MAGI-CCR5 | 0.013 µM
CCCn1nc(Cc2ccccc2)cc1C1CCN(C[C@H]2CN([C@@H](C(=O)O)C3CCCCC3)C[C@@H]2c2ccccc2)CC1 |  | BaL |  | HeLa | <0.0012 µM
C#C[C@@]1(CO)C=C[C@H](n2cc(C)c(=O)[nH]c2=O)O1 | RT-K65R | HXB2 |  | MAGI (CCR5) + MAGI | 1.3 µM
Cc1cc(Cl)cc(S(=O)(=O)c2cccc(N)c2C#N)c1 | RT-Y181C |  |  | HeLa + HELA CD4+ | 10 µM
O=C(O)c1c(Br)c(Br)c(Br)c(Br)c1-c1c2ccc(=O)c(O)c-2oc2c(O)c(O)ccc12 |  | NL4-3 |  | MAGI | 12.8 µM
Cc1cc(S(N)(=O)=O)ccc1NC(=O)COc1ccc(Cl)cc1C(=O)c1cc(C#N)cc(C(F)(F)F)c1 |  | HXB2 |  | HeLa + HeLa-MAGI | 0.001 µM
CCCCOc1ccc(Cc2cc(C3CCN(C[C@H]4CN([C@@H](C(=O)O)C5CCCCC5)C[C@@H]4c4cccc(F)c4)CC3)n(CC)n2)cc1 |  | BaL | 50% human serum | HeLa | <0.033 µM
C[C@@H]1CN2CCC[C@@H]3CCCCC[C@@H]4C(=O)[C@@H](C)CN5CCC[C@@H](CCCCC[C@@H](C1=O)[C@H]32)[C@H]45 |  | MN |  | MAGI | 55.31 µM
Cc1ccc(-c2ccc3c(c2)C=C(C(=O)Nc2ccc(C[N+](C)(C)C4CCOCC4)cc2)CCC3)cc1 |  | BaL |  | MAGI + MAGI-CCR5 | 0.0012 µM
Cc1cc(S(N)(=O)=O)ccc1NC(=O)COc1ccc(Cl)cc1C(=O)c1cccc(C#N)c1 |  | HXB2 |  | HeLa + HeLa-MAGI | 0.0007 µM
Cn1c(CN(CCN2CCCCC2)CC2CCCN(C3CCCC3)C2)nc2ccccc21 |  | BaL |  | MAGI | >10 µM
c1cc(CN2CCCNCCNCCCNCC2)ccc1CN1CCCNCCNCCCNCC1 |  | NL4-3 |  | HeLaP4 | 0.00285 µM
C[N+](C)(Cc1ccc(NC(=O)C2=Cc3cc(-c4ccc(N5CCCC5)cc4)ccc3CCC2)cc1)C1CCOCC1 |  | JR-FL |  | MAGI + MAGI-CCR5 | 0.0011 µM
Cc1cc(C#N)cc(C(=O)c2cc(Cl)ccc2OCC(=O)Nc2ncc(S(N)(=O)=O)cc2C)c1 |  | HXB2 |  | HeLa + HeLa-MAGI | 0.018 µM
Cc1cc(O)cc(S(=O)(=O)c2cccc(N)c2C#N)c1 | RT-P236L |  |  | HeLa + HELA CD4+ | 0.07 µM
CN(C)c1cccc2c(S(=O)(=O)N3CCSC3c3cccnc3)cccc12 |  | IIIB | 3 d | MAGI + MAGI-CCR5 | 4.614 µM
O=C(O[C@@H]1O[C@@H]2COC(=O)c3cc(O)c(O)c(O)c3-c3c(cc(O)c(O)c3O)C(=O)O[C@H]([C@H]1O)[C@@H]2O)c1cc(O)c(O)c(O)c1 |  |  |  | MAGI | 0.38 µM
N#C[C@]1(CO)O[C@@H](n2cnc3c(N)ncnc32)C[C@@H]1O | RT-M184V | 3TC-resistant (RT M184V) |  | MAGI | 2.28 µM
C#C[C@]1(CO)O[C@@H](n2cc(C)c(=O)[nH]c2=O)C[C@@H]1O | RT-K65R |  |  | HeLa | 0.53 µM
C[N+]1(CCc2ccc(NC(=O)C3=Cc4cc(-c5ccccc5)ccc4CC3)cc2)CCCCC1 |  | JR-FL |  | MAGI + MAGI-CCR5 | 1.1 µM
O=C([O-])c1ccc(C2=C3C=CC(=N3)C(c3ccc(C(=O)[O-])cc3)=C3C=CC(=N3)C(=c3ccc(=C([O-])[O-])cc3)c3ccc([n-]3)C(c3ccc(C(=O)[O-])cc3)=C3C=CC2=N3)cc1 |  | IIIB |  | MAGI cell | 1.4 µM
Cc1ccnc2c1NC(=O)c1cccnc1N2C1CC1 |  | IIIB | 3 d | MAGI + MAGI-CCR5 | 0.298 µM
Cc1ccnc2c1NC(=O)c1cccnc1N2C1CC1 |  |  |  | MAGI | <5 µg/mL
Cc1ccnc2c1NC(=O)c1cccnc1N2C1CC1 | RT-K103N | NL4-3 |  | MAGI (CCR5) + MAGI | 4.3 µM
CCn1nc(Cc2ccc(OC)c(C#N)c2)cc1C1CCN(C[C@H]2CN([C@@H](C(=O)O)C(C)(C)C)C[C@@H]2c2cccc(F)c2)CC1 |  | BaL | 50% human serum | HeLa | <0.033 µM
Cc1ccnc2c1NC(=O)c1cccnc1N2C1CC1 | M184V (3TC-resistant) | NL4.3-XCS |  | HeLa CD4 | 0.044 µM
Cc1cc(S(N)(=O)=O)ccc1NC(=O)COc1ccc(Cl)cc1C(=O)c1cc(Cl)cc(C#N)c1 | RT-V106I | NNRTI-resistant (RT V106I) |  | MAGI | 0.0011 µM
Cc1cc(S(N)(=O)=O)ccc1NC(=O)COc1ccc(Cl)cc1C(=O)c1cc(F)cc(C(F)(F)F)c1 |  | HXB2 |  | HeLa + HeLa-MAGI | 0.0014 µM
Cc1cn([C@H]2C[C@H](N=[N+]=[N-])[C@@H](CO)O2)c(=O)[nH]c1=O | K103N (NVP) | NL4.3-XCS |  | HeLa CD4 | 0.063 µM
CCn1nc(Cc2ccc(OC(F)F)cc2)cc1C1CCN(C[C@H]2CN([C@@H](C(=O)O)C(C)C)C[C@@H]2c2cccc(F)c2)CC1 |  | BaL | 50% human serum | HeLa | <0.1 µM
O=C([O-])c1cc(C(=O)[O-])cc(-c2c3nc(c(-c4cc(C(=O)[O-])cc(C(=O)[O-])c4)c4ccc([n-]4)c(-c4cc(C(=O)[O-])cc(C(=O)[O-])c4)c4nc(c(-c5cc(C(=O)[O-])cc(C(=O)[O-])c5)c5ccc2[n-]5)C=C4)C=C3)c1 |  | IIIB |  | MAGI cell | 0.49 µM
Oc1cccc(CN(CCN2CCCCC2)CC2CCCN(C3CCCC3)C2)c1 |  | BaL |  | MAGI | >10 µM
O=C(O)[C@@H](C1CCCCC1)N1C[C@H](CN2CCC(c3[nH]ncc3Cc3ccccc3)CC2)[C@@H](c2ccccc2)C1 |  | BaL |  | HeLa | <0.1 µM
Cc1ccc(-c2ccc3c(c2)C=C(C(=O)Nc2ccc(C[N+](C)(C)C4CCC(=O)CC4)cc2)CCO3)cc1 |  | JR-FL |  | MAGI + MAGI-CCR5 | 0.0058 µM
O=C(O)Cc1cccc(CCCC2(O)CCN(C[C@H]3CN(CC4CCCCC4)C[C@@H]3c3ccccc3)CC2)c1 |  | BaL |  | HeLa | <0.3 µM
O=C(O)[C@@H](C1CCCCC1)N1C[C@H](CN2CCC(c3[nH]ncc3CCc3ccccc3)CC2)[C@@H](c2ccccc2)C1 |  | BaL |  | HeLa | <0.033 µM
c1ccc(CNc2nc(-c3cccnc3)cs2)cc1 | K103N (NVP) | NL4.3-XCS |  | HeLa CD4 | 2.141 µM
Cc1cc(Br)cc(S(=O)(=O)c2cccc(N)c2C#N)c1 | RT-E138K |  |  | HeLa + HELA CD4+ | 0.017 µM
O=C([O-])c1cc(COc2ccc(-c3c4nc(c(-c5ccc(OCc6cc(C(=O)[O-])cc(C(=O)[O-])c6)cc5)c5ccc([n-]5)c(-c5ccc(OCc6cc(C(=O)[O-])cc(C(=O)[O-])c6)cc5)c5nc(c(-c6ccc(OCc7cc(C(=O)[O-])cc(C(=O)[O-])c7)cc6)c6ccc3[n-]6)C=C5)C=C4)cc2)cc(C(=O)[O-])c1 |  | BaL |  | MAGI cell | 0.12 µM
O=c1[nH]cnc2c1ncn2[C@H]1CC[C@@H](CO)O1 | RT | RTMDR |  | HeLa | 12.2 µM
Cc1cc(C#N)cc(C(=O)c2cc(Cl)ccc2OCC(=O)Nc2cnc(S(N)(=O)=O)cc2C)c1 |  | HXB2 |  | HeLa + HeLa-MAGI | 0.001 µM
CCOC(=O)Cn1nc(Cc2ccccc2)cc1C1CCN(C[C@H]2CN([C@@H](C(=O)O)C3CCCCC3)C[C@@H]2c2ccccc2)CC1 |  | BaL |  | HeLa | <0.022 µM
Cc1cc(N2CCS(=O)CC2)ccc1NC(=O)COc1ccc(Cl)cc1C(=O)c1ccccc1C#N |  | HXB2 |  | HeLa + HeLa-MAGI | 1.5 µM
CCCCOc1ccc(Cc2cc(C3CCN(C[C@H]4CN([C@@H](C(=O)O)C(C)(C)C)C[C@@H]4c4cccc(F)c4)CC3)n(CC)n2)cc1 |  | BaL | 50% human serum | HeLa | <0.033 µM
CCn1ncc(CCc2ccccc2)c1C1CCN(C[C@H]2CN([C@@H](C(=O)O)C3CCCCC3)C[C@@H]2c2ccccc2)CC1 |  | BaL |  | HeLa | <0.0004 µM
Cc1nc2ccccc2n1C1C[C@H]2CC[C@@H](C1)N2CC[C@H](NC(=O)C1CCOCC1)c1ccccc1 |  | NL4-3 |  | HeLaP4 | >1 µM
Nc1ccn([C@H]2C[C@H](O)[C@](CO)(CF)O2)c(=O)n1 | RT-K65R |  |  | HeLa | 0.065 µM
CCn1ncc(Cc2ccccc2)c1C1CCN(C[C@H]2CN([C@@H](C(=O)O)C3CCCCC3)C[C@@H]2c2ccccc2)CC1 |  | BaL |  | HeLa | <0.0069 µM

8 of the rows above, restated:

compound | changes | strain or isolate | conditions | cells | result
O=C([O-])c1cc(COc2ccc(-c3c4nc(c(-c5ccc(OCc6cc(C(=O)[O-])cc(C(=O)[O-])c6)cc5)c5ccc([n-]5)c(-c5ccc(OCc6cc(C(=O)[O-])cc(C(=O)[O-])c6)cc5)c5nc(c(-c6ccc(OCc7cc(C(=O)[O-])cc(C(=O)[O-])c7)cc6)c6ccc3[n-]6)C=C5)C=C4)cc2)cc(C(=O)[O-])c1 |  | BaL |  | MAGI cell | 0.12 µM
CCn1ncc(Cc2ccccc2)c1C1CCN(C[C@H]2CN([C@@H](C(=O)O)C3CCCCC3)C[C@@H]2c2ccccc2)CC1 |  | BaL |  | HeLa | <0.0069 µM
O=C(O[C@@H]1O[C@@H]2COC(=O)c3cc(O)c(O)c(O)c3-c3c(cc(O)c(O)c3O)C(=O)O[C@H]([C@H]1O)[C@@H]2O)c1cc(O)c(O)c(O)c1 |  |  |  | MAGI | 0.38 µM
O=C(O)[C@@H](C1CCCCC1)N1C[C@H](CN2CCC(c3[nH]ncc3CCc3ccccc3)CC2)[C@@H](c2ccccc2)C1 |  | BaL |  | HeLa | <0.033 µM
Cc1ccnc2c1NC(=O)c1cccnc1N2C1CC1 | M184V (3TC-resistant) | NL4.3-XCS |  | HeLa CD4 | 0.044 µM
Cc1cc(S(N)(=O)=O)ccc1NC(=O)COc1ccc(Cl)cc1C(=O)c1cccc(C#N)c1 |  | HXB2 |  | HeLa + HeLa-MAGI | 0.0007 µM
Cc1ccnc2c1NC(=O)c1cccnc1N2C1CC1 |  | HXB2 |  | HeLa + HeLa-MAGI | 0.088 µM
Cc1cc(S(N)(=O)=O)ccc1NC(=O)COc1ccc(Cl)cc1C(=O)c1cc(Cl)cc(C#N)c1 | RT-V106I | NNRTI-resistant (RT V106I) |  | MAGI | 0.0011 µM